The text below walks through data of paper doi:10.1101/2022.11.11.516238.

Construct, isoform or probe ends are uncertain for at least one entry.

The target in series [1] is T1, LeuO (Vibrio parahaemolyticus) (UniProt Q87SS2).
T1 sequence: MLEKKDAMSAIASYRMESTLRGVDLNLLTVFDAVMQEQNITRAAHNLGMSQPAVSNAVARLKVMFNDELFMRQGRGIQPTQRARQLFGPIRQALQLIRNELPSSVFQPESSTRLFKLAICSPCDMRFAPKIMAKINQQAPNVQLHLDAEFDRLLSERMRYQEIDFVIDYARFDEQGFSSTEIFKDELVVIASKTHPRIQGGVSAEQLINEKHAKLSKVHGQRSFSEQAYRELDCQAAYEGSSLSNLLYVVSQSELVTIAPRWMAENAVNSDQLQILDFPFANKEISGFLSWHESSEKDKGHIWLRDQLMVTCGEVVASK
Briefly: EMSA. Conditions: residues 1-319; probe letters rebuilt from the primers and the genome. In general terms: In EMSA bound probe runs differently from free probe, usually more slowly.

For series [2], the target named is T2, NhaR (Vibrio parahaemolyticus) (UniProt Q87S97).
T2 sequence: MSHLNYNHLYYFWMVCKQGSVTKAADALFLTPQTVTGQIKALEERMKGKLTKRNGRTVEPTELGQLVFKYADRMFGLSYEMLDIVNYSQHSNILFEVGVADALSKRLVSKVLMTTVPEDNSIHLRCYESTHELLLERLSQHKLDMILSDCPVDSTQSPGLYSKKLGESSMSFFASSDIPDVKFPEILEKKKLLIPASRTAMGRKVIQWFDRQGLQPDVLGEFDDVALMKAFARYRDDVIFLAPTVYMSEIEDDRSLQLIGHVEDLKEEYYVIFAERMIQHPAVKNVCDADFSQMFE
In words: EMSA. Conditions: residues 1-296; probe letters rebuilt from the primers and the genome.

As to “CCAAGGTGCTGATGTGATCATTTTGAAATACATATCCTTTGACGTCTAATTAAATTTCGTATTTATTATGGACATTCTTTACGGTTGAAAATCAAATAATCTGCGTTTTAATCTGGATTAATGTGACTAAAATCACACAAAAGCAACATTTAACCTAAATTTAAAATAGTTTGAACTCTAATTTATTAAAGCATCATTTAATACGAAACAACTCAACATGAGTCAGAATGCAGTGGGGTTTCAAAGAGGGGACTTAAGGTTTTTTACATAAAAAAACGGCACACTTTCGCATGCCGTTTTAAGGTTAGTTTTGTCGTCGTGGC (double strand) [PectA probe 1 (called PectA-2 in Fig. S5 legend)]”, the binding result in series [1] and in series [2] was “binds” each time. On to “CCCACTGCATTCTGACTCATGTTGAGTTGTTTCGTATTAAATGATGCTTTAATAAATTAGAGTTCAAACTATTTTAAATTTAGGTTAAATGTTGCTTTTGTGTGATTTTAGTCACATTAATCCAGATTAAAACGCAG (double strand) [PectA probe 1B]”, for which, in series [2], the binding result is on record as “binds”.
